{"source": "paper PMC11981937", "about": "(Nature, 2025)", "biological_target": "M protein (Severe acute respiratory syndrome coronavirus 2, UniProt P0DTC5)", "experiment": "Photo affinity labeling target deconvolution", "settings": "concluded from experiments with an analogue"}
{"smiles": "C[C@H]1Cn2ncc(C(=O)Nc3cccc(C#N)c3)c2C(=O)N1c1ccc(C(F)(F)c2ccccc2)cc1", "note": "[JNJ-9676, (S)-N-(3-cyanophenyl)-5-(4-(difluoro(phenyl)methyl)phenyl)-6-methyl-4-oxo-4,5,6,7-tetrahydropyrazolo[1,5-a]pyrazine-3-carboxamide]", "values": [{"measurement": "target selectivity (in words)", "result": "selective for M protein"}]}
